# In article PMC12035560, “Structures of Mycobacterium tuberculosis isoprenyl diphosphate synthase Rv2173 in substrate-bound forms” (Acta Crystallographica Section F: Structural Biology …, 2025):
# Chains of the proteins cited; added tags and fusions are not shown. Lines headed by an entry give the natural chain unless they say otherwise; changes in a name come on top.
# UniProt O53507: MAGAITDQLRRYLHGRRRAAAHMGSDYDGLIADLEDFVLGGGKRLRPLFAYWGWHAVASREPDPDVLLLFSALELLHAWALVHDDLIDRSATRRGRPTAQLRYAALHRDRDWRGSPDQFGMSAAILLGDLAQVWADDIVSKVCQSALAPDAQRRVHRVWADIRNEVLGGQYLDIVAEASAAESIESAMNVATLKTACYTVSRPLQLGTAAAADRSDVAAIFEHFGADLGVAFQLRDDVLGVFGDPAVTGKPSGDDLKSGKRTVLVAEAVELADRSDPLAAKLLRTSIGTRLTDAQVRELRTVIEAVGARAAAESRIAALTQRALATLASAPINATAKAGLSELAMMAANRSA
# Molecular target: T1, Rv2173 (Mycobacterium tuberculosis, UniProt O53507)
# T1 construct: gene idsA2
compound,measurement,value
C=C(C)CCOP(=O)(O)OP(=O)(O)O [IPP],"X-ray crystal structure, 2.20 A, co-crystallization","with the IPP occupying the putative allylic/DMAPP site, coordinating all three metal ions"
